Human monoclonal antibodies against the spike receptor-binding domain (heavy:light variable regions). IC50 against pseudoviruses bearing the spike of naturally observed variants; lower = stronger; >10 µg/ml means not reached at the top dose. No active / inactive call. The stated detection limit is 0.0005 µg/ml; values near or below 0.001 µg/ml lie at the floor of the assay.
B1: BD56-531 (protein)
chain 1: QVQLVQSGSELKKPGASVKVSCKASGYTFTDSSINWVRQAPGQGLEWMGWINTNTGTPTYAQGFTGRFVFSLDTSVTTAYLQISSLKAEDTAVYYCARIGAWYSSSWLDAAFDIWGQGTMVTVSS
chain 2: DIVMTQSPDSLAVSLGERATINCKSSQSVLYSSNNENLLAWYQQKPGQSPKLLINWASTRESGVPDRFSGSGSGTDFTLTISSLQPEDVAVYYCQQYFSTPLTFGGGTKVEIK
B2: BD56-536 (protein)
chain 1: QVQLVQSGSELKKPGASVKVSCKALGYPFTTFAMNWVRQAPGQGLKWMGWINTNTGNPTYAQGFTGRFVFSLDTSVSTAYLQISSLKAEDTAVYYCASWAGSVGPGWFDPWGQGTLVTVSS
chain 2: SYVLTQPPSVSVAPGQTATITCAGDNIGTKSVHWYQQKPGQAPLLVIYYDSDRPSGIPERFSGSNSGNTATLTVSRVEGGDEADYYCQVWHSSNDHVDDVVFGGGTKLTVL
B3: BD56-541 (protein)
chain 1: QVQLVQSGAEVKKPGSSVKVSCKASGGSFRNYAISWVRQAPGQGLEWMGRSIPVLGIANYAQKFQGRVTITADKSATTAYMELSSLRSEDTAVYYCARADRFTIAATGEGYWGQGTLVTVSS
chain 2: DIQMTQSPSSLSASVGDRVTITCQASQDISNSLNWCQQKPGKAPKFLIYDASTLETGVPSRFSGTGSGTDFTFTISSLQPEDVATYYCQQYDTLPWTFGQGTKVEIK
B4: BD56-542 (protein)
chain 1: QVHLEQSGAEVKKPGSSVKVSCKAPGGTFSSYAISWVRQAPGQGLEWMGKIIPILGIANYAQTFQVRVTITADKSTGTAYMELSSLRSEDTALYYCARERGYSGDGSSWYFDLWGRGTLVTVSS
chain 2: SVLTQPPSVSGAPGQRVTISCTGSNSNIGAGYDVHWYQQLPGTAPKLLIYANNNRPSGVPDRFSGSKSGTSASLAITGLQAEDEADYYCQSYDSSLNDSGVFGGGTKLTVL
B5: BD56-544 (protein)
chain 1: QVQLVQSGPEVKKPGTSLKVSCKASGFTFSNSAVQWVRRARGQGLEWIGWIVVGNGETNYAQRFQERLTITRDMSRDMSTSTVYMELRSLRSDDTAVYYCAADRVETMVRFREGGMDVWGRGTTVTVSS
chain 2: SYELTQPPSVSVSPGQTARITCSGDAWPKQYAYWYQQKPGQAPVLVIYKDSERPSGIPERFSGSSSGTIVTLTISGVQAEDEADYYCQSADDRQVVFGGGTKLTVL
B6: DH1161-2 (protein)
chain 1: QVQLVQSGAEVKKPGALLRVSCKGSGDTSTNHAIAWVRQAPGQGLEWMGWINVYNGRTNYAQKFQGRVTLTTDTATSTAYMELSSLRSDDTAVYYCARWIHRDFDWLPYGMFMDVWGQGTTVTVSS
chain 2: QSALTQPPSASGSPGQSVTISCTGTSSDVGVYKYVSWYQHHPGKTPKVIIYEVSKRPSGVPDRFSGSKSGNTASLTVSGLQAEDEADYYCTSYEADNTLVLGGGTKLTVL
B7: BD56-548 (protein)
chain 1: QVTLRESGPALVKPTQTLTLTCTFSGFSLTTRGMCVSWIRQPPGKALEWLALIDWDDDKYYSTSLKTRLTISKDTSKNQVVLTMTNMDPVDTATYYCARISGIAVEYYHYGMDVWGQGTTVTVSS
chain 2: SYELTQPPSVSVSPGQTARITCSGEPFPNLYAYWYQQKPGQAPVLLIYKDTERPSGIPERFSGSSSGTTVTLTISGVQAEDEADYYCQSADSSGVVFGGGTKLTVL
B8: BD56-553 (protein)
chain 1: EVQLVESGGGLVQPGGSLRLSCAASGFTFSTYDMHWVRQGAGKGLEWVSGIGTSGDTYYADSVKGRFTISRENAKNSLYLQMNSLRAGDTAVYYCARGYFQDDYGPNWFDPWGQGTLVTVSS
chain 2: DIQMTQSPSSLSASVGDRITITCRASQSISNYLNWYQQKPGRAPKLLIYAASSLQRGVPSRFSGSGSGTDFTLTISSLQPEDFASYYCQQSYVIPPWTFGQGTKVEIK
B9: BD56-563 (protein)
chain 1: QVQLVESGGGVVQPGRSLRLSCAASGFTFSSYAMHWVRQAPGKGLEWVAVILYDGSNKFYADSVKGRFTISRDNSKHTLYLQMNSLRGEDTAVYYCARDTLDRALVTWFDYWGQGTLVTVSS
chain 2: DIQMTQSPSSLSASVGDRVSIACRASQNIASYLNWYQQKPGKAPKLLIYTASSLQSGVPSRFSGSGSGTDFTLTISSLQPEDFATYYCQQSYSTPPWTFGQGTKVEIK
B10: BD56-567 (protein)
chain 1: QVQLVESGGGVVQPGRSLRLSCAASGFTFSTYAFHWVRQAPGKGLEWVAVISDDGSYKDYADSVKGRFTISRDNSKNTLDLQMNTVTTEDTALYYCAREGQTTVTTVFDSWGQGTLVTVSS
chain 2: DIQMTQSPSSLSASVGDRVTITCRASQSISRFLNWYQLKPGQAPKLLIYAASSLQSGVPSRFSGSGSGTDFTLTISSLQPEDFATYYCQQSYVNPSITFGQGTRLEIK
B11: BD56-568 (protein)
chain 1: EVQLVESGGGLVQPGGSLRLSCAASGFTFSSYDMHWVRQATGKSLEWVSAIGIAGDTYYPDSVKGRFTISRENAKNSLYLQMNSLRAGDTAMYYCTRITHSGIAAGGRMSYYYYMDVWGKGTTVTVSS
chain 2: DIQMTQSPSSLSASVGDRVTITCRASQSIRIFLNWYQLKPGKAPNLLIYGASSLQNGVPSRFSGSGSGTDFTLTINSLQPEDFATYYCQQTYSSPGSTFGGGTKVEIK
B12: BD56-572 (protein)
chain 1: QVQLQESGPGLVKPSQTLSLTCTVSRGSIRSGGFSWSWIRQHPGKGLEWLGNINPSGSTNYNPSLRNRLTISLDTSKNQFSLKVTSVTAADTAVYYCARLETGGYPHWFDPWGQGTLVTVSS
chain 2: SYVLTQPPSVSVAPGKTARITCGGNNIGGKSVHWYQQKPGQAPLLVIYYDSARPSGIPERFSGSNSGNTATLTISRVEAGDEAEYHCQVWDSSSDHPVFGGGTKLTVL

Each binder was assayed against SARS-CoV-2 Omicron BA.1 spike pseudovirus (assay: pseudovirus neutralization IC50; higher = weaker neutralization).
Description: (§1)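 Single-round VSV luciferase pseudovirus mixed with antibody dilutions for 1 h and put on Huh-7 cells for about a day; IC50 from the dose curve.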
In the case of B1, the “pseudovirus neutralization IC50” value is reported as > 10 µg/mL. In the case of B2, the “pseudovirus neutralization IC50” value is reported as 0.675 µg/mL. For B3, the “pseudovirus neutralization IC50” value was 3.95 µg/mL. B4 was tested, and the “pseudovirus neutralization IC50” value was 0.662 µg/mL. With B5 the “pseudovirus neutralization IC50” value was 4.26 µg/mL. B6 was tested, and the “pseudovirus neutralization IC50” value was > 10 µg/mL. B7 was tested, and the “pseudovirus neutralization IC50” value was 3.24 µg/mL. In the case of B8, the “pseudovirus neutralization IC50” value is reported as > 10 µg/mL. With B9 the “pseudovirus neutralization IC50” value was > 10 µg/mL. In the case of B10, the “pseudovirus neutralization IC50” value is reported as 5.42 µg/mL. B11 was tested, and the “pseudovirus neutralization IC50” value was 7.73 µg/mL. With B12 the “pseudovirus neutralization IC50” value was 1.07 µg/mL.

These binders were tested against SARS-CoV-2 Omicron BA.2 spike pseudovirus in the same assay as above.
Description: as §1
For B1, the “pseudovirus neutralization IC50” value was > 10 µg/mL. With B2 the “pseudovirus neutralization IC50” value was 0.635 µg/mL. With B3 the “pseudovirus neutralization IC50” value was 0.0468 µg/mL. In the case of B4, the “pseudovirus neutralization IC50” value is reported as 0.712 µg/mL. In the case of B5, the “pseudovirus neutralization IC50” value is reported as 3.93 µg/mL. For B6, the “pseudovirus neutralization IC50” value was > 10 µg/mL. B7 was tested, and the “pseudovirus neutralization IC50” value was 3.63 µg/mL. With B8 the “pseudovirus neutralization IC50” value was > 10 µg/mL. With B9 the “pseudovirus neutralization IC50” value was > 10 µg/mL. With B10 the “pseudovirus neutralization IC50” value was 5.43 µg/mL. With B11 the “pseudovirus neutralization IC50” value was 5.56 µg/mL. With B12 the “pseudovirus neutralization IC50” value was 1.42 µg/mL.

The binders below were run against SARS-CoV-2 Omicron BA.2.75 spike pseudovirus in the same assay as above.
Description: as §1
With B1 the “pseudovirus neutralization IC50” value was > 10 µg/mL. For B2, the “pseudovirus neutralization IC50” value was 0.609 µg/mL. In the case of B3, the “pseudovirus neutralization IC50” value is reported as 3.36 µg/mL. For B4, the “pseudovirus neutralization IC50” value was 0.734 µg/mL. In the case of B5, the “pseudovirus neutralization IC50” value is reported as 8.19 µg/mL. B6 was tested, and the “pseudovirus neutralization IC50” value was > 10 µg/mL. For B7, the “pseudovirus neutralization IC50” value was 6.2 µg/mL. In the case of B8, the “pseudovirus neutralization IC50” value is reported as > 10 µg/mL. B9 was tested, and the “pseudovirus neutralization IC50” value was > 10 µg/mL. In the case of B10, the “pseudovirus neutralization IC50” value is reported as 7.63 µg/mL. For B11, the “pseudovirus neutralization IC50” value was 3.39 µg/mL. With B12 the “pseudovirus neutralization IC50” value was 1.21 µg/mL.

Each binder was assayed against SARS-CoV-2 Omicron BA.5 spike pseudovirus in the same assay as above.
Description: as §1
B1 was tested, and the “pseudovirus neutralization IC50” value was > 10 µg/mL. B2 was tested, and the “pseudovirus neutralization IC50” value was > 10 µg/mL. B3 was tested, and the “pseudovirus neutralization IC50” value was > 10 µg/mL. In the case of B4, the “pseudovirus neutralization IC50” value is reported as > 10 µg/mL. In the case of B5, the “pseudovirus neutralization IC50” value is reported as 2.89 µg/mL. For B6, the “pseudovirus neutralization IC50” value was > 10 µg/mL. With B7 the “pseudovirus neutralization IC50” value was 5.23 µg/mL. For B8, the “pseudovirus neutralization IC50” value was > 10 µg/mL. With B9 the “pseudovirus neutralization IC50” value was > 10 µg/mL. For B10, the “pseudovirus neutralization IC50” value was 5.05 µg/mL. In the case of B11, the “pseudovirus neutralization IC50” value is reported as 7.64 µg/mL. For B12, the “pseudovirus neutralization IC50” value was 0.553 µg/mL.

These binders were tested against SARS-CoV-2 Omicron BQ.1.1 spike pseudovirus in the same assay as above.
Description: as §1
B1 was tested, and the “pseudovirus neutralization IC50” value was > 10 µg/mL. With B2 the “pseudovirus neutralization IC50” value was > 10 µg/mL. With B3 the “pseudovirus neutralization IC50” value was > 10 µg/mL. With B4 the “pseudovirus neutralization IC50” value was > 10 µg/mL. B5 was tested, and the “pseudovirus neutralization IC50” value was 2.52 µg/mL. B6 was tested, and the “pseudovirus neutralization IC50” value was > 10 µg/mL. B7 was tested, and the “pseudovirus neutralization IC50” value was 3.71 µg/mL. With B8 the “pseudovirus neutralization IC50” value was > 10 µg/mL. For B9, the “pseudovirus neutralization IC50” value was > 10 µg/mL. For B10, the “pseudovirus neutralization IC50” value was 5.27 µg/mL. B11 was tested, and the “pseudovirus neutralization IC50” value was 4.62 µg/mL. B12 was tested, and the “pseudovirus neutralization IC50” value was > 10 µg/mL.

The binders below were run against SARS-CoV-2 Omicron XBB spike pseudovirus in the same assay as above.
Description: as §1
For B1, the “pseudovirus neutralization IC50” value was > 10 µg/mL. B2 was tested, and the “pseudovirus neutralization IC50” value was > 10 µg/mL. For B3, the “pseudovirus neutralization IC50” value was > 10 µg/mL. B4 was tested, and the “pseudovirus neutralization IC50” value was > 10 µg/mL. B5 was tested, and the “pseudovirus neutralization IC50” value was 3.36 µg/mL. In the case of B6, the “pseudovirus neutralization IC50” value is reported as > 10 µg/mL. B7 was tested, and the “pseudovirus neutralization IC50” value was 5.44 µg/mL. In the case of B8, the “pseudovirus neutralization IC50” value is reported as > 10 µg/mL. With B9 the “pseudovirus neutralization IC50” value was > 10 µg/mL. With B10 the “pseudovirus neutralization IC50” value was 3.98 µg/mL. For B11, the “pseudovirus neutralization IC50” value was 4.85 µg/mL. In the case of B12, the “pseudovirus neutralization IC50” value is reported as > 10 µg/mL.

The binders below were run against SARS-CoV-2 early D614G spike pseudovirus in the same assay as above.
Description: as §1
B1 was tested, and the “pseudovirus neutralization IC50” value was 0.0156 µg/mL. B2 was tested, and the “pseudovirus neutralization IC50” value was 5.71 µg/mL. B3 was tested, and the “pseudovirus neutralization IC50” value was 3.09 µg/mL. B4 was tested, and the “pseudovirus neutralization IC50” value was 0.724 µg/mL. In the case of B5, the “pseudovirus neutralization IC50” value is reported as 9.59 µg/mL. For B6, the “pseudovirus neutralization IC50” value was 2.19 µg/mL. For B7, the “pseudovirus neutralization IC50” value was 0.6 µg/mL. B8 was tested, and the “pseudovirus neutralization IC50” value was > 10 µg/mL. In the case of B9, the “pseudovirus neutralization IC50” value is reported as > 10 µg/mL. For B10, the “pseudovirus neutralization IC50” value was 0.871 µg/mL. With B11 the “pseudovirus neutralization IC50” value was 3.65 µg/mL. B12 was tested, and the “pseudovirus neutralization IC50” value was 0.353 µg/mL.

— the supplement of paper PMC9931576
